This data set has as its target T1, VirB (Shigella flexneri) (UniProt P0A247).
T1 sequence: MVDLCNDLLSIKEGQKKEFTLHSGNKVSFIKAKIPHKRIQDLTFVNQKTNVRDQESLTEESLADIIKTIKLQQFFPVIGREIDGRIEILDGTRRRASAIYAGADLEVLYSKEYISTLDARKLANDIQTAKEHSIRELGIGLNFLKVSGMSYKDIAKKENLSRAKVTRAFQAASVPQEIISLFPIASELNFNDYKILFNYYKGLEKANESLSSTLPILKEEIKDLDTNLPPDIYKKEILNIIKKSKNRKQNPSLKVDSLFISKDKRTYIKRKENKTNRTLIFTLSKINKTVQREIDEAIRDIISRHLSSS
As to the kind of experiment: BLI. The note with it: 5 mM Mg2+, 150 mM NaCl, BLI: 25 mM HEPES/NaOH pH 7.5, 150 mM (low stringency) or 500 mM (high stringency) NaCl, 5 mM MgCl2, 1 mM DTT, 10 uM BSA, 0.01% Tween 20, +/-1 mM nucleotide, recombinant protein, residues 1-309, label: 5' biotin-TEG on both strands.

With “AATATATTCAATTAATAAATTTAGAAACTTGAGCCTGTTAACATAATCAAATTTTCTTTTGCTGTACATAATATGTACCTCGTGAGCATATGTAGTGCTCTGATATGAACTACATCCCACAAGATAAAGTGCCTGATGTATCAGGCTCGGAGTGTTATAGAAAAAGAGAGAACCCTGTTGAATAAGTATCTTTTTTGTTGTAAAACGAGGTACAA (double strand) [closed scrambled virS DNA (215 bp)]”, the binding result is, setting by setting: (1 mM CTP) “binds”; (no nucleotide) “binds”.
As for “AATATATTCAATTAATAAATTTAGAAACTTGAGCCTGTTAACATAATCAAATTTTCTTTTGCTGTACATAATATGTACCTCGTGAGCATATGTAGTGCTCGTTTCATCATGAAATCCCACAAGATAAAGTGCCTGATGTATCAGGCTCGGAGTGTTATAGAAAAAGAGAGAACCCTGTTGAATAAGTATCTTTTTTGTTGTAAAACGAGGTACAA (double strand) [closed virS DNA (215 bp)]”, the binding result by setting is: (1 mM CTP) “binds”; (no nucleotide) “binds”.
